Laboratory results from ChEMBL document CHEMBL4651402, “Screening of ~5500 FDA-approved drugs and clinical candidates for anti-SARS-CoV-2 activity” (2021).

Tested on: SARS-CoV-2
Test: microbe, parasite or virus in culture
Settings: Severe acute respiratory syndrome coronavirus 2, Vero C1008, 48 h

Row | Compound | IC50 [µM] | IC50 (read-out: pIC50 (converted)) [µM]
1 | COc1ccc(CC(C)NCC(O)c2ccc(O)c(NC=O)c2)cc1 (centres undefined) [FORMOTEROL] | > 20 | > 20
2 | CC(Cc1ccc(O)cc1)NCC(O)c1cc(O)cc(O)c1 (centres undefined) [FENOTEROL] | > 20 | > 20
